Measured values from several laboratories, pooled; numbers as filed in NIAID ChemDB.

All rows: tests in culture; species: Hepatitis B virus; measure: EC50

a–b is a range or a potency band. ECn is the concentration giving n% inhibition of infection, replication or growth. Lines come from different laboratories, so protocols vary.

structure	cell line	method	result
CN(c1ccc2c(C(=O)Nc3ccc(F)c(Cl)c3)n(C)nc2c1)S(=O)(=O)c1cnn(C)c1	HepAD38	PCR	100–1000 µM
C[C@H](NC(=O)c1c2n(c(=O)n1-c1ccc(OC3CC3)cc1)CCN(C(=O)c1ccc(Br)c(Cl)c1)C2)c1cccc2nccnc12	HepG2.117	PCR	<0.1 µM
Cn1nc2cc(NS(=O)(=O)c3cnn(C4CN(C(=O)OC(C)(C)C)C4)c3)ccc2c1C(=O)Nc1ccc(F)c(Cl)c1	HepAD38	PCR	100–1000 µM
O=C(NCc1ccccc1)c1c2n(c(=O)n1-c1ccc3[nH]ccc3c1)CCN(C(=O)c1ccc(Br)c(Cl)c1)C2	HepG2.117	PCR	0.1–0.5 µM
Cc1c(C(=O)C(=O)NC(C)(C)c2cnn(C)c2)c(C)n(C)c1C(=O)Nc1ccc(F)c(C(F)(F)F)c1	HepG2.2.15	PCR	<0.001 µM
Cn1nc2ccc(NC(=O)OCc3ccc(-c4ccccc4)cc3)cc2c1C(=O)Nc1ccc(F)c(Cl)c1	HepAD38	PCR	>1000 µM
C#CC(C)(CC)NC(=O)C(=O)c1c(C)c(C(=O)Nc2ccc(F)c(F)c2)n(C)c1C	HepG2.2.15	PCR	0.001–0.0099 µM
CNS(=O)(=O)N1CCN(S(=O)(=O)c2cn(C)c(C(=O)Nc3cc(F)c(F)c(F)c3)c2F)CC1	HepAD38 cells	PCR	0.1–0.3 µM
Cn1cnc(S(=O)(=O)Nc2ccc3c(C(=O)Nc4ccc(F)c(Cl)c4)n(C)nc3c2)c1	HepAD38	PCR	<100 µM
CCCNC(=O)C(=O)N1CC[C@@H](NS(=O)(=O)c2cn(C)c(C(=O)Nc3cc(F)c(F)c(F)c3)c2F)C(F)(F)C1	HepAD38 cells	PCR	<0.1 µM
CC(C)Oc1ccc(-n2c(C(=O)NCc3ccc(=O)n(C)c3)c3n(c2=O)CCN(C(=O)c2ccc(Br)c(Cl)c2)C3)cc1	HepG2.117	PCR	>5 µM
C#CC1(NC(=O)C(=O)c2c(F)c(C(=O)Nc3ccc(F)c(C#N)c3)n(C)c2C)CC(F)(F)C1	HepG2.2.15	PCR	<0.001 µM
COc1ccc(-n2c(C(=O)NCc3ccccc3)c3n(c2=O)CCN(C(=O)c2ccc(Cl)c(Cl)c2)C3)cc1Cl	HepG2.117	PCR / entry	>5 µM
C=CCNS(=O)(=O)CNc1ccc2c(C(=O)Nc3ccc(F)c(Cl)c3)n(C)nc2c1	HepAD38	PCR	<100 µM
C[C@H](NC(=O)c1c2n(c(=O)n1-c1ccccc1)CCN(C(=O)c1ccc(Br)c(Cl)c1)C2)c1ccccc1	HepG2.117	PCR	0.5–5 µM
CCNC(=O)C(=O)N1CCC(NS(=O)(=O)c2cn(C)c(C(=O)Nc3cc(F)c(F)c(F)c3)c2Cl)CC1	HepAD38 cells	PCR	<0.1 µM
Cn1nc2cc(NS(=O)(=O)C3CC3)ncc2c1C(=O)Nc1ccc(F)c(Cl)c1	HepAD38	PCR	>1000 µM
O=C(NCc1ccccc1)c1c2n(c(=O)n1-c1ccc(OCC(F)F)cc1)CCN(C(=O)c1ccc(Br)c(Cl)c1)C2	HepG2.117	PCR	0.5–5 µM
C=C[C@](C)(CO)NC(=O)C(=O)c1c(C)c(C(=O)Nc2ccc(F)c(C(F)(F)F)c2)n(C)c1C	HepG2.2.15	PCR	0.001–0.0099 µM
Cn1cc(S(=O)(=O)Nc2cnc3c(C(=O)Nc4ccc(F)c(Cl)c4)n(C)nc3c2)cn1	HepAD38	PCR	>1000 µM
CNC(=O)C(=O)N1CC[C@@H](NS(=O)(=O)c2c(Cl)c(C(=O)Nc3cc(F)c(F)c(F)c3)n(C)c2Cl)C1	HepAD38 cells	PCR	<0.1 µM

The first 2 rows once more:

| structure | cell line | method | result |
|---|---|---|---|
| CN(c1ccc2c(C(=O)Nc3ccc(F)c(Cl)c3)n(C)nc2c1)S(=O)(=O)c1cnn(C)c1 | HepAD38 | PCR | 100–1000 µM |
| C[C@H](NC(=O)c1c2n(c(=O)n1-c1ccc(OC3CC3)cc1)CCN(C(=O)c1ccc(Br)c(Cl)c1)C2)c1cccc2nccnc12 | HepG2.117 | PCR | <0.1 µM |